One molecule from article PMC8530329 (PLoS Pathogens, 2021) can be followed below.

The target in this assay is T1, spike glycoprotein receptor-binding domain, SARS-CoV-2 (Severe acute respiratory syndrome …, UniProt P0DTC2).
T1 construct: source: Expi293F Expression System, purified (Ni Sepharose, anti-Flag M2 agarose)
The assay is described as follows: SPR. The settings on record: both partners purified.

B1: RBD-chAb-45 (antibody, V domains shown)
VH: EVQLQQSGPELVKPGASVKISCKTSGYTFTEYTIYWVKQSLGKSLEWIGGNNPNNDDTTYKQFFKGKATLTVDKSSSTAYMELRSLTSEDSAVYYCARDGYPYYYALDFWGQGTSVTVSS
VL: DIVMTQSQKFMSTSVGDRVSVTCKSSQNVGTNVAWYQQKPGQSPKALIYSASYRYSGVPDHFTGSGSGTDFTLTISNVQSADLAEYFCQQYNNYPWTFGGGTKLEIK
notes: also called S-chAb-45 (in complex with S); source: Expi-293 cells, co-transfected, purified (protein G column)
Turning to B1, the Kd (commonly the constant that tells how readily two partners part at equilibrium) is below 0.5 nM.
